Measured values from patent US20240239861A1, “GLUCAGON-RECEPTOR SELECTIVE POLYPEPTIDES AND METHODS OF USE THEREOF” (i2O Therapeutics, Inc., priority 2016, published 2024).

Assay: Body weight change in DIO Long Evans rats after 13 days continuous dosing by osmotic pump

SMILES	Hill slope of weight loss dose response (fit of each agent (FIG. 8))	Hill slope of weight loss dose response (shared fit (FIG. 9))
CC(C)C[C@H](NC(=O)[C@H](Cc1ccc(O)cc1)NC(=O)[C@H](CCCCN)NC(=O)[C@H](CO)NC(=O)[C@H](Cc1ccc(O)cc1)NC(=O)[C@H](CC(=O)O)NC(=O)[C@H](CO)NC(=O)[C@@H](NC(=O)[C@H](Cc1ccccc1)NC(=O)[C@@H](NC(=O)CNC(=O)[C@H](Cc1c[nH]cn1)NC(=O)[C@H](CO)NC(=O)[C@@H](N)Cc1ccc(O)cc1)[C@@H](C)O)[C@@H](C)O)C(=O)N[C@@H](CC(=O)O)C(=O)NC(C)(C)C(=O)N[C@@H](CCCCN)C(=O)N[C@@H](Cc1ccc(O)cc1)C(=O)N[C@@H](C)C(=O)N[C@@H](CCC(N)=O)C(=O)N[C@@H](CCC(=O)O)C(=O)N[C@@H](Cc1ccccc1)C(=O)N[C@H](C(=O)NC(C)(C)C(=O)N[C@@H](Cc1c[nH]c2ccccc12)C(=O)N[C@@H](CC(C)C)C(=O)N[C@@H](CCC(=O)O)C(=O)N[C@@H](CC(=O)O)C(=O)N[C@@H](CCC(=O)O)C(=O)N1CCC[C@H]1C(=O)N[C@@H](CO)C(=O)N[C@@H](CO)C(=O)NCC(=O)N[C@@H](C)C(=O)N1CCC[C@H]1C(=O)N1CCC[C@H]1C(=O)N1CCC[C@H]1C(=O)N[C@@H](CO)C(=O)O)C(C)C [Compound A1] (H-YSHGTFTSDYSKYLD[Aib]KYAQEFV[Aib]WLEDEPSSGAPPPS-OH; N-terminus assumed)	−1.26	−1.43
CC(C)C[C@H](NC(=O)[C@H](Cc1ccc(O)cc1)NC(=O)[C@H](CCCCN)NC(=O)[C@H](CO)NC(=O)[C@H](Cc1ccc(O)cc1)NC(=O)[C@H](CC(=O)O)NC(=O)[C@H](CO)NC(=O)[C@@H](NC(=O)[C@H](Cc1ccccc1)NC(=O)[C@@H](NC(=O)CNC(=O)[C@H](Cc1c[nH]cn1)NC(=O)[C@H](CO)NC(=O)[C@@H](N)Cc1ccc(O)cc1)[C@@H](C)O)[C@@H](C)O)C(=O)N[C@@H](CC(=O)O)C(=O)NC(C)(C)C(=O)N[C@@H](CCCCN)C(=O)N[C@@H](CO)C(=O)N[C@@H](C)C(=O)N[C@@H](CCC(N)=O)C(=O)N[C@@H](CCC(=O)O)C(=O)N[C@@H](Cc1ccccc1)C(=O)N[C@H](C(=O)NC(C)(C)C(=O)N[C@@H](Cc1c[nH]c2ccccc12)C(=O)N[C@@H](CC(C)C)C(=O)N[C@@H](CCC(=O)O)C(=O)N[C@@H](CC(=O)O)C(=O)N[C@@H](CCC(=O)O)C(=O)N1CCC[C@H]1C(=O)N[C@@H](CO)C(=O)N[C@@H](CO)C(=O)NCC(=O)N[C@@H](C)C(=O)N1CCC[C@H]1C(=O)N1CCC[C@H]1C(=O)N1CCC[C@H]1C(=O)N[C@@H](CO)C(=O)O)C(C)C [Compound A2]	–	−1.25
CC(C)C[C@H](NC(=O)[C@H](Cc1ccc(O)cc1)NC(=O)[C@H](CCCCN)NC(=O)[C@H](CO)NC(=O)[C@H](Cc1ccc(O)cc1)NC(=O)[C@H](CC(=O)O)NC(=O)[C@H](CO)NC(=O)[C@@H](NC(=O)[C@H](Cc1ccccc1)NC(=O)[C@@H](NC(=O)CNC(=O)[C@H](CCC(N)=O)NC(=O)[C@H](CO)NC(=O)[C@@H](N)Cc1ccc(O)cc1)[C@@H](C)O)[C@@H](C)O)C(=O)N[C@@H](CC(=O)O)C(=O)N[C@@H](C)C(=O)N[C@@H](C)C(=O)N[C@@H](CCCNC(=N)N)C(=O)N[C@@H](C)C(=O)N[C@@H](CCC(N)=O)C(=O)N[C@@H](CCC(=O)O)C(=O)N[C@@H](Cc1ccccc1)C(=O)N[C@H](C(=O)N[C@@H](CCCCN)C(=O)N[C@@H](Cc1c[nH]c2ccccc12)C(=O)N[C@@H](CC(C)C)C(=O)N[C@@H](CCC(=O)O)C(=O)N[C@@H](CC(=O)O)C(=O)N[C@@H](CCC(=O)O)C(=O)N1CCC[C@H]1C(=O)N[C@@H](CCCCN)C(=O)N[C@@H](CO)C(=O)N[C@@H](CCCCN)C(=O)N[C@@H](CO)C(=O)N1CCC[C@H]1C(=O)N1CCC[C@H]1C(=O)N1CCC[C@H]1C(=O)N[C@@H](CO)C(N)=O)C(C)C [Compound A3] (H-YSQGTFTSDYSKYLDAARAQEFVKWLEDEPKSKSPPPS-NH2; N-terminus assumed)	–	−1.12

Where a SMILES comes first, the peptide text is derived from it. [ ]: non-standard residue; d: D form. Aib = CC(C)(N)C(=O)O
